The record followed here is patent US7419966B2, “[5-carboxamido or 5-fluoro]-[2′,3′-unsaturated or 3′-modified]-pyrimidine nucleosides” (Emory University, priority 1995, dated 2008).

The test system of the data set is hepatitis B virus in transfected HepG-2 (2.2.15) cells. As to the kind of experiment: Anti-HBV activity in 2.2.15 cell cultures (HBV virion DNA and replicative intermediates). It is filed as cell-based. As to the method: The ability of the active compounds to inhibit the growth of virus in 2.2.15 cell cultures (HepG2 cells transformed with hepatitis virion) can be evaluated as described in detail below.
A summary and description of the assay for antiviral effects in this culture system and the analysis of HBV DNA has been described (Korba and Milman, 1991, Antiviral Res., 15:217). The antiviral evaluations were performed on two separate passages of cells. All wells, in all plates, were seeded at the same density and at the same time.
Due to the inherent variations in the levels of both intracellular and extracellular HBV DNA, only depressions greater than 3.5-fold (for HBV virion DNA) or 3.0-fold (for HBV DNA replication intermediates) from the average levels for these HBV DNA forms in untreated cells are considered to be statistically significant [P<0.05]. The levels of integrated HBV DNA in each cellular DNA preparation (which remain constant on a per cell basis in these experiments) were used to calculate the levels of intracellular HBV DNA forms, thereby ensuring that equal amounts of cellular DNA were compared between separate samples.
Typical values for extracellular HBV virion DNA in untreated cells ranged from 50 to 150 pg/ml culture medium (average of approximately 76 pg/ml). Intracellular HBV DNA replication intermediates in untreated cells ranged from 50 to 100 pg/μg cell DNA (average approximately 74 pg/μg cell DNA). In general, depressions in the levels of intracellular HBV DNA due to treatment with antiviral compounds are less pronounced, and occur more slowly, than depressions in the levels of HBV virion DNA (Korba and Milman, 1991, Antiviral Res., 15:217).

In the case of `Nc1nc(=O)n([C@@H]2C=C[C@H](CO)O2)cc1F` [L-F-D4C, β-L-2′,3′-didehydro-2′,3′-dideoxy-5-fluoro-cytidine], for the setting “Table 4”, the “Selectivity Index IC50/EC90 RI” value was more than 4 and the “Selectivity Index IC50/EC90 Virion” value was more than 7.3.
For `NC(=O)c1cn([C@@H]2CS[C@H](CO)O2)c(=O)nc1N` [C Carboxamide (−)-β-L, 5-carboxylic acid amide-2′,3′-dideoxy-3′-thiacytidine], where the note is “Table 2”, the “Selectivity Index IC50/EC90 RI” value was determined as 177 and the “Selectivity Index IC50/EC90 Virion” value was 1165.
In the same order, the values of “5-carboxylic acid amide-2′,3′-dideoxy-3′-thiacytidine [C Carboxamide (+)-β-D]” are 296 and 1249.
For `Nc1ccn([C@@H]2C=C[C@H](CO)O2)c(=O)n1` [L-D4C, β-L-2′,3′-didehydro-2′,3′-dideoxy-cytidine], under “Table 4”, the “Selectivity Index IC50/EC90 RI” value is 454 and the “Selectivity Index IC50/EC90 Virion” value was determined as 1149.
